Read-outs that look alike come from different tables or passages of the source.
Target: T1, KOR (Cavia porcellus, UniProt P41144)
T1 construct: from tissue
Assay: Opioid receptor binding, KOR, guinea pig brain membranes

By UniProt entry, the sequences of proteins in these tests, tags left out.
UniProt P41144, whole entry: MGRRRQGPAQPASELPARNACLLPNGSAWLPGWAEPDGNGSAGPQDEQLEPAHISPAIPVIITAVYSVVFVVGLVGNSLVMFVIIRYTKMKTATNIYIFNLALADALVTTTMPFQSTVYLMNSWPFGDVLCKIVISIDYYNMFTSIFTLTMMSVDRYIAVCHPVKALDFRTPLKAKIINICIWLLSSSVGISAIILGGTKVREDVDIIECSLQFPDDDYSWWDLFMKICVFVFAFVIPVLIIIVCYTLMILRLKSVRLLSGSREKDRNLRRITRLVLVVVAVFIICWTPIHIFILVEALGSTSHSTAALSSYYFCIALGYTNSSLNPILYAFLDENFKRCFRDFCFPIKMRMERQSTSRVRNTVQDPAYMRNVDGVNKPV

Question: Which Ki (Table 1-4, guinea pig brain membranes, read-out: Binding Ki KOR) does the source give for `CO[C@@]12CCC(=O)[C@@H]3Oc4c(O)ccc5c4[C@@]31CCN(C)[C@@H]2C5` [Compound 14-OMO, 14-O-methyloxymorphone, reference compound] here?
Answer: 10.2 nM

Question: What about the Ki (in vitro binding assay, guinea pig brain membranes, read-out: Binding Ki (nM) KOR) of the same compound?
Answer: 10.2 nM
